A mixed list of measured activities; the numbers were collected in NIAID ChemDB.

Common to all: toxicity to cultured cells; cell line: HepG2 2.2.15; read-out: CC50

Conditions beyond the fields shown may differ between rows. CCn: concentration that lowers growth or viability of the cells by n%.

COC(=O)[C@H](C)NP(=O)(OC[C@H]1O[C@@H](n2ccc3c(N)ncnc32)CC1F)Oc1ccccc1 ; result: 149 µM
CCc1c(Sc2ccc(F)cc2)[nH]c(=O)[nH]c1=O ; result: >100 µM
Fc1ccc(NCc2nc(=S)[nH][nH]2)cc1 ; result: >100 µM
Nc1ncnc2c1nc(I)n2[C@H]1CC[C@@H](CO)C1 ; read by: visual reading ; result: 9 µM
O=C(CNc1ccccc1)NNC(=S)Nc1ccccc1 ; result: >100 µM
C/C(=N\N=C(N)N)c1cc(NC(=O)CCCCCCCCC(=O)Nc2cc(/C(C)=N/N=C(N)N)cc(/C(C)=N/N=C(N)N)c2)cc(/C(C)=N/N=C(N)N)c1 ; result: >20 µM
CCOC(=O)CSc1nnc(CNc2ccccc2)n1-c1ccccc1 ; result: >100 µM
CNc1ncnc2c1ncn2[C@H]1CC(F)[C@@H](CO)O1 ; result: >200 µM
COC(=O)[C@H](Cc1ccccc1)NP(=O)(OC[C@@H]1C=C[C@H](n2ccc3c(N)ncnc32)C1)Oc1ccccc1 ; result: 51 µM
CNc1ncnc2c1ncn2[C@H]1CC(F)[C@@H](COP(=O)(N[C@@H](C)C(=O)OC)Oc2ccccc2)O1 ; result: 58 µM
C=CCn1c(=O)c(/C(=N\Nc2ccccc2)C(O)C(O)CO)nc2ccccc21 ; read by: MTT ; result: >100 µM
COC(=O)[C@H](C)NP(=O)(OC[C@H]1C=C[C@@H](n2ccc3c(N)ncnc32)C1)Oc1ccccc1 ; result: 230 µM
COC(=O)[C@H](C)NP(=O)(OC[C@H]1O[C@@H](n2cnc3c(N)ncnc32)CC1F)Oc1ccccc1 ; result: 7 µM
O=c1c(-c2cc(CO)n(-c3ccc(Br)cc3)n2)nc2ccccc2n1CC(Br)CBr ; read by: MTT ; result: >100 µM
Cc1nc2c(N)ncnc2n1[C@H]1CC[C@@H](CO)C1 ; read by: visual reading ; result: >200 µM
CCc1c(Sc2ccc(C)cc2)[nH]c(=O)[nH]c1=O ; result: 92 µM
COC1OC(Cn2c(C)cc(=O)nc2SC)C(O)C1O ; result: >100 µM
CN(C)C(=O)c1nc2c(N)ncnc2n1[C@H]1CC[C@@H](CO)C1 ; read by: visual reading ; result: >200 µM
O=c1c2ccccc2c(=O)n(-c2ccccc2)n1CC(O)CO ; result: >10 µM
CCc1c(Sc2cc(C)cc(C)c2)[nH]c(=O)[nH]c1=O ; result: >100 µM
Cc1ccc(NCc2nnc(SCC(=O)NN)n2-c2ccccc2)cc1 ; result: >100 µM
C[C@@H]1CO[C@@]2(C[C@@H]1OC(=O)c1ccccc1)O[C@@H]1C[C@@H](C(=O)O[C@@H]3C[C@H](O)[C@@H](O)[C@H](O)[C@H]3OC3O[C@H](CO)[C@@H](O)[C@H](O)[C@H]3O)C[C@H](O)[C@]1(O)[C@H]2O ; read by: MTT ; result: 1.5 µM
COC(=O)C(C)(C)NP(=O)(OC[C@H]1C=C[C@@H](n2ccc3c(N)ncnc32)C1)Oc1ccccc1 ; result: >2 µM
CN(/C=C1\SC(=O)NC1=O)Cc1cccc2ccccc12 ; result: 46.78 µM
C[C@@H]1CO[C@@]2(C[C@@H]1OC(=O)c1ccc(O)cc1)O[C@]1(O)C[C@@H](C(=O)O[C@@H]3C[C@H](O)[C@@H](O)[C@H](O)[C@H]3OC3O[C@H](CO)[C@@H](O)[C@H](O)[C@H]3O)C[C@H](O)[C@]1(O)[C@H]2O ; read by: MTT ; result: 60 µM
O=C(CNc1ccc(F)cc1)NNC(=S)Nc1ccccc1 ; result: >100 µM
CC(=O)N[C@H]1C(O[C@@H]2[C@@H](O)[C@H](O)[C@@H](O)C[C@H]2OC(=O)[C@H]2C[C@H](O)[C@]3(O)[C@@H](O)[C@]4(C[C@H](OC(=O)c5ccc(O)cc5)[C@H](C)CO4)O[C@]3(O)C2)O[C@H](CO)[C@@H](O)[C@@H]1O ; read by: MTT ; result: 51.4 µM
Nc1ncnc2c1ncn2[C@H]1CC[C@@H](CO)C1 ; read by: visual reading ; result: >200 µM
COC1OC(Cn2cc(C)c(=O)nc2SC)C(O)C1O ; result: >100 µM
COC(=O)[C@H](C)NP(=O)(OC[C@@H]1C=C[C@H](n2ccc3c(N)ncnc32)C1)Oc1ccccc1 ; result: 81 µM
CCCc1cc(=O)nc(SC)n1CC1OC(OC)C(O)C1O ; result: >100 µM
CCOC(=O)c1c(-c2ccccc2)c(-c2ccccc2)nn(CC(O)CO)c1=O ; result: >10 µM
CCCc1cc(=O)[nH]c(SCC2OC(OC)C(O)C2O)n1 ; result: >100 µM
COC(=O)[C@H](C)NP(=O)(OC[C@@H]1O[C@H](n2cnc3c(N)ncnc32)CC1F)Oc1ccccc1 ; result: >200 µM
C[C@H](NP(=O)(OC[C@@H]1C=C[C@H](n2ccc3c(N)ncnc32)C1)Oc1ccccc1)C(=O)OCc1ccccc1 ; result: 18 µM

A second listing of 4 rows from above:

CCCc1cc(=O)[nH]c(SCC2OC(OC)C(O)C2O)n1 ; result: >100 µM
CC(=O)N[C@H]1C(O[C@@H]2[C@@H](O)[C@H](O)[C@@H](O)C[C@H]2OC(=O)[C@H]2C[C@H](O)[C@]3(O)[C@@H](O)[C@]4(C[C@H](OC(=O)c5ccc(O)cc5)[C@H](C)CO4)O[C@]3(O)C2)O[C@H](CO)[C@@H](O)[C@@H]1O ; read by: MTT ; result: 51.4 µM
CNc1ncnc2c1ncn2[C@H]1CC(F)[C@@H](CO)O1 ; result: >200 µM
Fc1ccc(NCc2nc(=S)[nH][nH]2)cc1 ; result: >100 µM